We go through 2 molecules from US20250263469A1, “POLYPEPTIDES TARGETING SARS-COV-2 AND RELATED COMPOSITIONS AND METHODS” (HOSPITAL FOR SICK CHILDREN, published 2025).

Read-outs that look alike come from different tables or passages of the source.

Assay [1] deals with T1, SARS-CoV-2 receptor binding domain (RBD), wild type (BEI NR52309) (SARS-CoV-2, UniProt P0DTC2 319-541). Description: BLI competition on His-tagged RBD, signal of the 2nd Ab after 1st Ab 82.
Assay [2] deals with T1, SARS-CoV-2 receptor binding domain …. The assay can be described thus: BLI competition on His-tagged RBD, signal of the 2nd Ab after 1st Ab 298.
For assay [3] the target is unchanged. The assay can be described thus: BLI competition on His-tagged RBD, signal of the 2nd Ab after 1st Ab 46.
Assay [4] shares this target. The assay can be described thus: BLI competition on His-tagged RBD, signal of the 2nd Ab after 1st Ab 52.
Assay [5] has the same target. The assay can be described thus: method and antibody format not given.
Assay [6] shares this target. Description: BLI competition on His-tagged RBD, signal of the 2nd Ab after 1st Ab 236.
Assay [7] shares this target. Description: BLI competition on His-tagged RBD, signal of the 2nd Ab after 1st Ab 80.
Assay [8] shares this target. Description: BLI competition on His-tagged RBD, signal of the 2nd Ab after 1st Ab 324.
Assay [9] shares this target. The assay can be described thus: method and antibody format not given. This is another data set of the same source.

B1: mAb 298 (antibody, V domains shown)
VH: QVQLVQSGAEVKKPGASVKVSCKASGGTFSTYGISWVRQAPGQGLEWMGWISPNSGGTDLAQKFQGRVTMTRDTSTSTVYMELSSLRSEDTAVYYCASDPRDDIAGGYWGQGTLVTVSS
VL: not shown
For the molecule B1, the RBD binding in assay [1] was found to be 0.2; in [2] it was 0.3; in [3], 1.4; in assay [4] it was 1.2; in [6], 0.4; in assay [7] it was 0.3. The same molecule returned an RBD binding in assay [8] of 0.5. For the same molecule, binding in [5] was put at a Kd of 24 nM.

B2: mAb 80 (antibody, V domains shown)
VH: QVQLVQSGAEVKKPGSSVKVSCKASGGTFNRYAFSWVRQAPGQGLEWMGGIIPIFGTANYAQKFQGRVTITADESTSTAYMELSSLRSEDTAVYYCARSTRELPEVVDWYFDLWGRGTLVTVSS
VL: DIVMTQSPDSLAVSLGERATINCKSSQSVLYSSNNKNYLAWYQQKPGQPPKLLIYWASTRESGVPDRFSGSGSGTDFTLTISSLQAEDVAVYYCQQYYSAPLTFGGGTKVEIKR
As to B2, binding in assay [9] was characterised by a dissociation constant (Kd) of 142 nM. The RBD binding in assay [1] is 0.1; in assay [2] it was 0.1; in assay [3], 1; in assay [4] it was 0.9; in assay [6], 0.2; in [7], 0.5. Also, the RBD binding in assay [8] is 0.2.
